Each structure is given as a SMILES string. ± gives the standard deviation of the averaged measurements. The list shows a part of the results, in another mix than the full data.

The subject of the first assay is E. coli TESEC Mtb DapB. In words: growth (OD600 after 10 h); higher = more growth (less inhibition). The settings on record: arabinose induction (level): High; compound 0.1 mM; raw OD600 reference: median of DMSO wells […], cell-free background 0.041. Here is the method: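 TESEC E. coli strains in which the native enzyme is deleted and replaced by arabinose-inducible Mtb Asd, DapB, CysH or TrpD, each grown in its selective medium. Strains were screened against the Prestwick library at 0.1 mM and 1% DMSO in 384-well format at low and high arabinose induction. Growth is read as OD600 after 10 h in triplicate.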
`COc1cc(Br)c(C[N+]2(CCOCCC3CCC4CC3C4(C)C)CCOCC2)cc1OC` (configuration not stated) [Pinaverium bromide] gave a growth of 0.04833 ± 0.00029.

The same assay, now with this note: arabinose induction (level): Low; compound 0.1 mM; raw OD600 reference: median of DMSO wells 0.227, cell-free background 0.041.
In turn, `COc1cc(Br)c(C[N+]2(CCOCCC3CCC4CC3C4(C)C)CCOCC2)cc1OC` (configuration not stated) [Pinaverium bromide] yielded a growth of 0.0505 ± 0.0021.

The values above are taken from the supplement of paper PMC9262897, “Low-cost anti-mycobacterial drug discovery using engineered E. coli” (Nature Communications, 2022).
